In the data set the test system is HapR (Vibrio fluvialis 85003). In words: DNase I footprinting. Particulars: 10 mM Hepes pH 7.9, 100 mM KCl, 0.2 mM EDTA, 2 mM DTT, 10% glycerol, recombinant protein, residues 1-205, label: FAM/HEX, probe letters rebuilt from the primers and the genome.

The exact form of at least one protein or probe is not confirmed.

For “CAGGAAACAGCTATGACATGCGCTCTTTAGGAGCTACACTTCCTTCTTTAGACATATAACGTCTCCAAATACCTATGCCAGTCGTTGTCAATGAAATAGTTGTGTAAATATCTGATTGATAATACACATTAGAAATATCTTAATTATCTTATTTGATTTTTAGTAAATATAACTTCTTGAAATTGATTAATTCACCCGACTTCTCGTCAGACAAATATAACCATTGAATAATACAAGTTAAACTTACATATAAACTTTTATTTATAAAACTATGAATAAAGAGACAAGCCAATCTCCCTATTCCTGATATTCGAAAGCGAGCATATTCTATTCATTTAATAATGTTTTGTTGCACAAAAATCACAAGAATATGATCTTCACCCCAAAAACGATTACTTTTATCACACTTATTATCTATCGCACTGGCCGTCGTTTTAC (double strand) [tssB2 (vipA) promoter footprinting probe]”, the binding result (two protected regions) is “binds”.

As for “GTAAAACGACGGCCAGTCACCGCTGCTTGATCCCAGCCGCAGATGGCAGACAAATGATTGAAGTGAGAAACCTTTTTAGAGTGTTTAACTAATTTATCGAATACGCTCATGAGAATAGCCTTCCTTGACGAAAAATGAGAGAGAAGTGTACCAACGTGCTACAGATTAACAAGTGGCCTGAACCAGCGACGTGAACCTTGCCCGACAAGCAAGATCTTGCTTGTTCAAAGGCAGTTTGTTGCTCTAATGGCAAGGTTTTAAATATAACTAATTGATTTTAAATGAATGCCAAAGTGGCATCGACTTTGCTCCCTTACTCACTGAATTCGCGCTGAGCGCACTTACATCACGAACGTTTTATCGAATGGCAAAGGTTGTCTTAACCCGTTGCCTGATAAACAACCAGTTAGAAAGGAATGAGCAATGCCAACTCCATGTTATATCTCTATCGAAGGTCAAACTCAGGGTCTAATCACTGCAGGGTCATAGCTGTTTCCTG (double strand) [tssD2_a (hcpA) promoter footprinting probe]”, for the setting “one protected region”, the binding result is “binds”.

The record behind these values is article PMC8018390.
